Compound potency records, mixed from different reports. Data source: NIAID ChemDB in PubChem.

All rows: toxicity to cultured cells; cell line: HepG2; measure: CC50

An empty or dashed field is not shown. CCn is the concentration with n% toxicity to the cells. a–b is a range or a potency band. Conditions beyond the fields shown may differ between rows.

smiles	method	value
CCC(CC)NC(=O)C(=O)c1c(C)c(C(=O)Nc2ccc(F)c(C)c2)c(C)n1C	MTT	5–30 µM
CCOC(=O)/C=C1\NCCc2cc3c(cc21)OCO3		<7.5 µM
CNC(=O)C1CC(n2c(NC(C)C)nc3c(c2=O)C[C@@H](C)N(C(=O)c2ccc(Cl)c(C(F)(F)F)c2)C3)C1	luminescence	>50 µM
CC(C)(C)c1ccc(Oc2ccc3c(NCCCNCc4ccco4)ccnc3c2)cc1	fluorescence	3.1 µM
CCOC(=O)CCCCCOc1cccc(CN(C(=O)c2ccc(-c3ccc4cc[nH]c4c3)cc2)C(C)C)c1		>20 µM
C#Cc1ccc(C(=O)N2Cc3nc(NC(C)C)n(-c4ccc(C(=O)NC)cc4)c(=O)c3C[C@H]2C)cc1C(F)(F)F	luminescence	>50 µM
Cc1c(C(=O)Nc2ccc(F)c(Br)c2)c(C)n(C)c1C(=O)C(=O)NC1CCC(O)CC1	MTT	>30 µM
COc1cccc(CNCCCNc2ccnc3cc(CC4CCCCC4)ccc23)c1O	fluorescence	0.97 µM
Cc1cc(NC(=O)c2c(C)c(C(=O)C(=O)N[C@@H]3CC[C@@H](O)CC3(C)C)n(C)c2C)ccc1F	MTT	>30 µM
CCOC(OCC)C(=O)NCCc1ccc(OC)c(OC)c1		<7.5 µM
Cc1cc(NC(=O)c2c(C)c(C(=O)C(=O)NC3(C)CCC(O)CC3)n(C)c2C2CCCCC2)ccc1F	MTT	>30 µM
Fc1ccc(Oc2ccc3c(NCCCNCc4ccco4)ccnc3c2)cc1	fluorescence	16 µM
CCCN(Cc1cccc(OCCCCCC(=O)O)c1)C(=O)c1ccc(-c2ccc3c(c2)OCO3)cc1		>20 µM
CNC(=O)c1ccc(-n2c(NC(C)C)nc3c(c2=O)C[C@@H](C)N(C(=O)c2ccc(C(F)F)c(Br)c2)C3)cc1	luminescence	>50 µM
Cc1cc(NC(=O)c2c(C)c(C(=O)C(=O)NC3(C)CCC(O)CC3)n(C)c2C2CCCC2)ccc1F	MTT	>30 µM
CC(C)N(Cc1cccc(OCCCCCC(=O)OC(=O)O)c1)C(=O)c1ccc(-c2ccc(Cl)c(Cl)c2)cc1		>20 µM
Cc1cc(NC(=O)c2c(C)c(C(=O)C(=O)NC3(C)CC(O)C3)n(C)c2-c2ccncc2)ccc1F	MTT	>30 µM
COc1cc2c(cc1OC)C(C)=NCC2		<7.5 µM
Cc1cc(NC(=O)c2c(C)c(C(=O)C(=O)NC3C[C@@H]4CC(O)[C@H]3C4)n(C)c2C)ccc1F	MTT	>30 µM
FC(F)(F)c1ccc(-c2ccc3c(NCCCNCc4ccco4)ccnc3c2)cc1	fluorescence	3.47 µM
CNC(=O)c1ccc(-n2c(NC(C)C)nc3c(c2=O)C[C@@H](C)N(C(=O)c2ccc(C(F)(F)F)c(Cl)c2)C3)cc1	luminescence	>50 µM
CCOC(=O)COc1ccccc1CN(C(=O)c1ccc(-c2ccc3c(c2)OCO3)cc1)C(C)C		>20 µM
Cc1cc(NC(=O)c2c(C)c(C(=O)C(=O)NC3CCC(S(C)(=O)=O)CC3)n(C)c2CC2CC2)ccc1F	MTT	>30 µM
CC(C)N(Cc1cccc(OCCCCCC(=O)OC(=O)O)c1)C(=O)c1ccc(-c2cccc(NC=O)c2)cc1		>20 µM
c1coc(CNCCCNc2ccnc3cc(-c4cccc5ccccc45)ccc23)c1	fluorescence	5.6 µM